Data as given in patent publication US20100292343A1, “USE OF A DIALKYLKETONE PEROXIDE AS BIOCIDAL, STERILIZING, ANTISEPTIC, DISINFECTING AND ANTI-PARASITIC AGENT” (published 2010).

Legend:
[1] = tested on: Aspergillus niger ATCC 16404; assay: Fungicidal activity, EN 1275
[2] = tested on: Candida albicans ATCC 10321; assay: Fungicidal activity, EN 1275
[3] = tested on: poliovirus type 1 ATCC VR-192; assay: Virucidal activity, ASTM E-1053-97, Vero cells
[4] = tested on: Enterococcus hirae ATCC 8043; assay: Bactericidal activity, EN 1276 dilution-neutralisation
[5] = tested on: Escherichia coli ATCC 10536; assay: as above
[6] = tested on: Legionella pneumophila ATCC 33152; assay: as above
[7] = tested on: Pseudomonas aeruginosa ATCC 15442; assay: as above
[8] = tested on: Staphylococcus aureus ATCC 6538; assay: as above
[9] = tested on: Mycobacterium terrae ATCC 15755; assay: Mycobactericidal activity, carrier disk ASTM E-2197-02
[10] = 0.25% in cell culture medium, exposure time 15 min
[11] = within 15 and 30 minutes at 0.06% in hard water
[12] = within 5 minutes at 0.125% in hard water

Substance: methyl ethyl ketone peroxide
- Na: number of CFU/ml in the assay mixture ([1]; 0.06% (v/v), t = 5 min): 0.4 × 10^2 CFU/ml
- R: Reduction of viability ([1]; 0.06% (v/v), t = 5 min): 1.3 × 10^4
- R: Reduction of viability ([1]; 0.06% (v/v), t = 15 min): 1.3 × 10^4
- R: Reduction of viability ([1]; 0.06% (v/v), t = 30 min): 1.3 × 10^4
- Na: number of CFU/ml in the assay mixture ([1]; 0.125% (v/v), t = 5 min): 0.1 × 10^2 CFU/ml
- R: Reduction of viability ([1]; 0.125% (v/v), t = 5 min): 3.6 × 10^4
- Na: number of CFU/ml in the assay mixture ([1]; 0.125% (v/v), t = 15 min): 0.1 × 10^2 CFU/ml
- R: Reduction of viability ([1]; 0.125% (v/v), t = 15 min): 5.5 × 10^4
- Na: number of CFU/ml in the assay mixture ([1]; 0.125% (v/v), t = 30 min): 0.1 × 10^2 CFU/ml
- R: Reduction of viability ([1]; 0.125% (v/v), t = 30 min): 5.5 × 10^4
- R: Reduction of viability ([1]; 0.25% (v/v), t = 5 min): ≧10^5
- Na: number of CFU/ml in the assay mixture ([1]; 0.25% (v/v), t = 15 min): 0 CFU/ml
- R: Reduction of viability ([1]; 0.25% (v/v), t = 15 min): ≧10^5
- Na: number of CFU/ml in the assay mixture ([1]; 0.25% (v/v), t = 30 min): 0 CFU/ml
- R: Reduction of viability ([1]; 0.25% (v/v), t = 30 min): ≧10^5
- Na: number of CFU/ml in the assay mixture ([2]; 0.06% (v/v), t = 5 min): 0.6 × 10^2 CFU/ml
- R: Reduction of viability ([2]; 0.06% (v/v), t = 5 min): 2.5 × 10^4
- Na: number of CFU/ml in the assay mixture ([2]; 0.06% (v/v), t = 15 min): 0 CFU/ml
- R: Reduction of viability ([2]; 0.06% (v/v), t = 15 min): ≧10^5
- Na: number of CFU/ml in the assay mixture ([2]; 0.06% (v/v), t = 30 min): 0 CFU/ml
- Na: number of CFU/ml in the assay mixture ([2]; 0.125% (v/v), t = 5 min): 0.1 × 10^2 CFU/ml
- Na: number of CFU/ml in the assay mixture ([2]; 0.125% (v/v), t = 15 min): 0 CFU/ml
- R: Reduction of viability ([2]; 0.125% (v/v), t = 15 min): ≧10^5
- R: Reduction of viability ([2]; 0.125% (v/v), t = 30 min): ≧10^5
- Na: number of CFU/ml in the assay mixture ([2]; 0.25% (v/v), t = 5 min): 0 CFU/ml
- R: Reduction of viability ([2]; 0.25% (v/v), t = 5 min): ≧10^5
- R: Reduction of viability ([2]; 0.25% (v/v), t = 15 min): ≧10^5
- Na: number of CFU/ml in the assay mixture ([2]; 0.25% (v/v), t = 30 min): 0 CFU/ml
- R: Reduction of viability ([2]; 0.25% (v/v), t = 30 min): ≧10^5
- fungicidal activity (conclusion) ([2]; norm EN 1275): fungicidal activity
- CPE: cytopathic effect [3, 10]: Absence of CPE
- Reduction (log10) [3, 10]: Reduction (log10): ≧5
- reduction (conclusion) ([3]; 0.25% within 15 minutes): > 1×10^4 TCID50
- virucidal effect (conclusion) ([3]; 0.25% within 15 minutes): absolute virucidal effect
- Na: number of CFU/ml in the assay mixture ([4]; 0.06% (v/v), t = 15 min): 24.8 × 10^2 CFU/ml
- R: Reduction of viability ([4]; 0.06% (v/v), t = 15 min): 0.09 × 10^5
- Na: number of CFU/ml in the assay mixture ([4]; 0.06% (v/v), t = 30 min): 20.5 × 10^2 CFU/ml
- R: Reduction of viability ([4]; 0.06% (v/v), t = 30 min): 0.1 × 10^5
- Na: number of CFU/ml in the assay mixture ([4]; 0.125% (v/v), t = 5 min): 17.8 × 10^2 CFU/ml
- R: Reduction of viability ([4]; 0.125% (v/v), t = 5 min): 0.1 × 10^5
- Na: number of CFU/ml in the assay mixture ([4]; 0.125% (v/v), t = 15 min): 6.9 × 10^2 CFU/ml
- R: Reduction of viability ([4]; 0.125% (v/v), t = 15 min): 0.3 × 10^5
- Na: number of CFU/ml in the assay mixture ([4]; 0.125% (v/v), t = 30 min): 0 CFU/ml
- R: Reduction of viability ([4]; 0.125% (v/v), t = 30 min): ≧10^6
- Na: number of CFU/ml in the assay mixture ([4]; 0.25% (v/v), t = 5 min): 0.1 × 10^2 CFU/ml
- R: Reduction of viability ([4]; 0.25% (v/v), t = 5 min): 24 × 10^5
- Na: number of CFU/ml in the assay mixture ([4]; 0.25% (v/v), t = 15 min): 0 CFU/ml
- Na: number of CFU/ml in the assay mixture ([4]; 0.25% (v/v), t = 30 min): 0 CFU/ml
- R: Reduction of viability ([4]; 0.25% (v/v), t = 30 min): ≧10^6
- bactericidal activity (conclusion) ([4]; within 5 and 15 minutes at 0.25% in hard water): bactericidal activity
- bactericidal activity (conclusion) ([4]; within 30 minutes at 0.125% in hard water): bactericidal activity
- Na: number of CFU/ml in the assay mixture ([5]; 0.06% (v/v), t = 5 min): 6.6 × 10^2 CFU/ml
- R: Reduction of viability ([5]; 0.06% (v/v), t = 5 min): 0.3 × 10^5
- R: Reduction of viability ([5]; 0.06% (v/v), t = 15 min): ≧10^6
- Na: number of CFU/ml in the assay mixture ([5]; 0.06% (v/v), t = 30 min): 0 CFU/ml
- R: Reduction of viability ([5]; 0.06% (v/v), t = 30 min): ≧10^6
- Na: number of CFU/ml in the assay mixture ([5]; 0.125% (v/v), t = 5 min): 0 CFU/ml
- R: Reduction of viability ([5]; 0.125% (v/v), t = 5 min): ≧10^6
- Na: number of CFU/ml in the assay mixture ([5]; 0.125% (v/v), t = 15 min): 0 CFU/ml
- R: Reduction of viability ([5]; 0.125% (v/v), t = 15 min): ≧10^6
- Na: number of CFU/ml in the assay mixture ([5]; 0.125% (v/v), t = 30 min): 0 CFU/ml
- R: Reduction of viability ([5]; 0.125% (v/v), t = 30 min): ≧10^6
- R: Reduction of viability ([5]; 0.25% (v/v), t = 5 min): ≧10^6
- Na: number of CFU/ml in the assay mixture ([5]; 0.25% (v/v), t = 15 min): 0 CFU/ml
- R: Reduction of viability ([5]; 0.25% (v/v), t = 15 min): ≧10^6
- bactericidal activity (conclusion) [5, 11]: bactericidal activity
- bactericidal activity (conclusion) [5, 12]: bactericidal activity
- bactericidal activity (conclusion) [6, 11]: bactericidal activity
- bactericidal activity (conclusion) [6, 12]: bactericidal activity
- Na: number of CFU/ml in the assay mixture ([7]; 0.06% (v/v), t = 5 min): 0.2 × 10^2 CFU/ml
- Na: number of CFU/ml in the assay mixture ([7]; 0.06% (v/v), t = 15 min): 0 CFU/ml
- R: Reduction of viability ([7]; 0.06% (v/v), t = 15 min): ≧10^6
- Na: number of CFU/ml in the assay mixture ([7]; 0.06% (v/v), t = 30 min): 0 CFU/ml
- R: Reduction of viability ([7]; 0.06% (v/v), t = 30 min): ≧10^6
- R: Reduction of viability ([7]; 0.125% (v/v), t = 5 min): ≧10^6
- Na: number of CFU/ml in the assay mixture ([7]; 0.125% (v/v), t = 15 min): 0 CFU/ml
- R: Reduction of viability ([7]; 0.125% (v/v), t = 15 min): ≧10^6
- Na: number of CFU/ml in the assay mixture ([7]; 0.125% (v/v), t = 30 min): 0 CFU/ml
- R: Reduction of viability ([7]; 0.125% (v/v), t = 30 min): ≧10^6
- R: Reduction of viability ([7]; 0.25% (v/v), t = 5 min): ≧10^6
- Na: number of CFU/ml in the assay mixture ([7]; 0.25% (v/v), t = 15 min): 0 CFU/ml
- R: Reduction of viability ([7]; 0.25% (v/v), t = 15 min): ≧10^6
- Na: number of CFU/ml in the assay mixture ([7]; 0.25% (v/v), t = 30 min): 0 CFU/ml
- R: Reduction of viability ([7]; 0.25% (v/v), t = 30 min): ≧10^6
- Na: number of CFU/ml in the assay mixture ([8]; 0.06% (v/v), t = 5 min): 11 × 10^2 CFU/ml
- R: Reduction of viability ([8]; 0.06% (v/v), t = 5 min): 0.1 × 10^5
- Na: number of CFU/ml in the assay mixture ([8]; 0.06% (v/v), t = 15 min): 11.7 × 10^2 CFU/ml
- Na: number of CFU/ml in the assay mixture ([8]; 0.06% (v/v), t = 30 min): 0.15 × 10^2 CFU/ml
- R: Reduction of viability ([8]; 0.06% (v/v), t = 30 min): 10 × 10^5
- R: Reduction of viability ([8]; 0.125% (v/v), t = 5 min): 0.5 × 10^5
- Na: number of CFU/ml in the assay mixture ([8]; 0.125% (v/v), t = 15 min): 0.1 × 10^2 CFU/ml
- R: Reduction of viability ([8]; 0.125% (v/v), t = 15 min): 15 × 10^5
- Na: number of CFU/ml in the assay mixture ([8]; 0.125% (v/v), t = 30 min): 0 CFU/ml
- Na: number of CFU/ml in the assay mixture ([8]; 0.25% (v/v), t = 5 min): 0 CFU/ml
- R: Reduction of viability ([8]; 0.25% (v/v), t = 5 min): ≧10^6
- Na: number of CFU/ml in the assay mixture ([8]; 0.25% (v/v), t = 15 min): 0 CFU/ml
- R: Reduction of viability ([8]; 0.25% (v/v), t = 15 min): ≧10^6
- Na: number of CFU/ml in the assay mixture ([8]; 0.25% (v/v), t = 30 min): 0 CFU/ml
- bactericidal activity (conclusion) ([8]; within 30 minutes at 0.06% in hard water): bactericidal activity
- mycobactericidal effect (conclusion) ([9]; 1% within 15 and 30 minutes): mycobactericidal effect
- mean number of colony forming units per ml recovered after exposure of 10 test carrier disks ([9]; peroxide 0.5%, exposure time 5 min): 175 CFU/ml
- mean number of colony forming units per ml recovered after exposure of 10 test carrier disks ([9]; peroxide 0.5%, exposure time 15 min): 100 CFU/ml
- mean number of colony forming units per ml recovered after exposure of 10 test carrier disks ([9]; peroxide 0.5%, exposure time 30 min): 90 CFU/ml
- mean number of colony forming units per ml recovered after exposure of 10 test carrier disks ([9]; peroxide 1%, exposure time 5 min): 160 CFU/ml
- mean number of colony forming units per ml recovered after exposure of 10 test carrier disks ([9]; peroxide 1%, exposure time 15 min): 0 CFU/ml
- mean number of colony forming units per ml recovered after exposure of 10 test carrier disks ([9]; peroxide 1%, exposure time 30 min): 0 CFU/ml
- mean number of colony forming units per ml recovered after exposure of 10 test carrier disks ([9]; peroxide 2%, exposure time 5 min): 0 CFU/ml
- mean number of colony forming units per ml recovered after exposure of 10 test carrier disks ([9]; peroxide 2%, exposure time 15 min): 0 CFU/ml
- mean number of colony forming units per ml recovered after exposure of 10 test carrier disks ([9]; peroxide 2%, exposure time 30 min): 0 CFU/ml
- mean number of colony forming units per ml recovered after exposure of 10 test carrier disks ([9]; peroxide 4%, exposure time 5 min): 0 CFU/ml
- mean number of colony forming units per ml recovered after exposure of 10 test carrier disks ([9]; peroxide 4%, exposure time 15 min): 0 CFU/ml
- mean number of colony forming units per ml recovered after exposure of 10 test carrier disks ([9]; peroxide 4%, exposure time 30 min): 0 CFU/ml
